Test results as given in PMC9517163 (2022).

B1: dolphin ACE2, mFc-tagged (Fc fusion)
chain: QSATEERAKTFLQKFDREAEDLSYQSSLASWNYNTNITDENVQKMNAAGAKWSAFYEEQSRIAKTYPLEEIRNLTLKRQLQVLQQSGTSVLSADKSKRLNAILSTMSTIYSSGKVLDPNTQESLVLEPGLDDIMENSKDYNRRLWAWEGWRAEVGKQLRPLYEEYVVLENEMARANNYEDYGDYWRGDYEVTGAGDYDYSRDQLIRDVERTFAEIKPLYEQLHAYVRAKLMDAYPSRISPTGCLPAHLLGDMWGRFWTNLYPLTVPFGERPSIDVTKEMQNQSWDAKRIFKEAEKFFVSIGLPNMTQGFWDNSMLTEPGDGRKVVCHPTAWDLGKGDFRIKMCTKVTMDDFLTAHHEMGHIQYDMAYATQPYLFRNGANEGFHEAVGEIMSLSAATPHYLKALGLLPPDFYEDSATEINFLLKQALTIVGTLPFTYMLEKWRWMVFKGEIPKEQWMQKWWEMKREIVGVVEPLPHDETYCDPACLFHVAEDYSFIRYYTRTIYQFQFHEALCQTAKHEGPLYKCDISNSTEAGQRLLQMLHLGKSEPWTSALERIVGVKTMDVKPLLNYFEPLLTWLKGQNRNSFVGWRTDWTPYSNQSIKVRISLKSALGEKAYEWNDNEMYLFRSSVAYAMREYFSKVRNKTIPFGEKDVWVSDLKPRISFNFFVTSPKNMSDIIPRTEVEEAIRMSRGRINDAFRLDDSSLEFLGVQPTLAPPYEPPVT
B2: sperm whale ACE2, mFc-tagged (Fc fusion)
chain: QSTTEEQAKTFLQKFDHEAEDLSYQSSLASWNYNTNITDENVQKMNAARAKWSAFYEEQSRTAKTYPLEEIQNLTLKRQLQALQQSGTSVLSADKSKRLNTILNTMSTIYSSGKVLDPNTQECLVLEPGLDDIMENSEDYSRRLWAWEAWRAEVGKQLRPLYEEYVVLENEMARANNYEDYGDYWRGDYEVTGAGDYDYSRDQLITDVERTFAEIKPLYEQLHAYVRAKLMDAYPSRISPTGCLPAHLLGDMWGRFWTNLYPLTVPFGEKSSIDVTKEMRNQSWDAKRIFKEAEKFFVSIGLPNMTQEFWDNSMLTEPGDGRKVVCHPTAWDLGKGDFRIKMCTKVTMDDFLTARHEMGHIQYDMAYATQPYLLRNGANEGFHEAVGEIMSLSAATPHYLKALGLLPPDFYEDSATEINFLLKQALKIVGTLPFTYMLEKWRWMVFKGEIPKEQWMQKWWEMKREIVGVVEPLPHDETYCDPACLFHVAEDYSFIRYYTRTIYQFQFHEALCQAAKHEGPLYKCDISNSTEAGQRLLQMLHLGKSEPWTSALENIVGVKTMDVKPLLNYFEPLLTWLKDQNRNSFVGWSTDWTPYSDQSIKVRISLKSALGEKAYEWNDNEMYLFRSSVAYAMREYFSKVRNETIPFGEEDVRVGDLKPRISFTFFVTSPKNVSDIIPRTEVEEAIRMSRGRINDAFRLDDNSLEFLGIEPTLGPPYEPPVT
B3: sea lion ACE2, mFc-tagged (Fc fusion)
chain: RSTTEDLVKTFLEKFNSEAEELSYQSSLASWNYNTNITDENVQKMNDAGAKWSAFYEEQSKQAKTYPLEEIQDSTVKRQLQALQHSGSSVLSADKSQRLNTILNAMSTIYSTGKACNPNNPQECLLLEPGLDDIMANSRDYNERLWAWEGWRSEVGKQLRPLYEEYVALKNEMARANNYEDYGDYWRGDYEEEWTNGYNYSRDQLIKDVEQTFTQIQPLYEHLHAYVRAKLMDTYPSHMSPTGCLPAHLLGDMWGRFWTNLYPLTVPFGQKPNIDVTDTMVNQSWDARRIFEEAEKFFVSVGLPNMTQGFWENSMLTEPGDSRKVVCHPTAWDLGKHDFRIKMCTKVTMDDFLTAHHEMGHIQYDMAYAAQPFLLRNGANEGFHEAVGEIMSLSAATPKHLKNIGLLPPGFSEDNETDINFLFKQALTIVGTLPFTYMLEKWRWMVFKGEIPKEQWMKKWWEMKRDLVGVVEPLPHDETYCDPASLFHVANDYSFIRYYTRTIYQFQFQEALCQIAKHEGPLHKCDISNSSEAGQTLLQMLKLGRSKPWTLALYRVVGAKNMDVRPLLNYFDPLFTWLKEQNRNSFVGWNTDWSPYADQSIKVRISLKSALGEKAYEWNDNEMYLFRSSIAYAMREYFSKVKNQMIPFVEDNVWVNNLKPRISFTFFVTSPGNMSDIIPRADVEEAIRMSRGRINDAFRLDDNSLEFLGIQPTLEPPYQPPVT
B4: fur seal ACE2, mFc-tagged (Fc fusion)
chain: RSTTEDLVKTFLEKFNSEAEELSYQSSFASWNYNTNITDENVQKMNDAGAKWSAFYEEQSKQAKTYPLEEIQDSTVKRQLQALQHSGSSVLSVDKSQRLNTILNAMSTIYSTGKACNPNNPQECLLLEPGLDDIMANSRDYNERLWAWEGWRSEVGKQLRPLYEEYVALKNEMARANNYEDYGDYWRGDYEEEWTNGYNYSRDQLIKDVEQTFTQIQPLYEHLHAYVRAKLMDTYPSHISPTGCLPAHLLGDMWGRFWTNLYPLTVPFGQKPNIDVTDTMVNQSWDARRIFEEAEKFFVSVGLPNMTQGFWENSMLTEPGDSRKVVCHPTAWDLGKHDFRIKMCTKVTMDDFLTAHHEMGHIQYDMAYAAQPFLLRNGANEGFHEAVGEIMSLSAATPKHLKNIGLLPPGFSEDNETDINFLFKQALTIVGTLPFTYMLEKWRWMVFKGEIPKEQWMKKWWEMKRDLVGVVEPLPHDETYCDPASLFHVANDYSFIRYYTRTIYQFQFQEALCQIAKHEGPLHKCDISNSSEAGQTLLQMLKLGRSKPWTLALYRVVGAKNMDVRPLLNYFDPLFTWLKEQNRNSFVGWNTDWSPYADQSIKVRISLKSALGEKAYEWNDNEMYLFRSSIAYAMREYFSKVKKQTIPFVEDNVWVNNLKPRISFTFFVTSPGNMSDIIPRADVEEAIRMSRGRINDAFRLDDNSLEFLGIQPTLEPPYQPPVT
B5: minke whale ACE2, mFc-tagged (Fc fusion)
chain: QSTTEEQAKTFLQKFDHEAEDLSYRSSLASWNYNTNITDENVQKMNAARAKWSAFYEEQSRIAKTYPLEEIQNLTLKRQLQALQQSGTSVLSADKSKRLNTILNTMSTIYSSGKVLDPNTQEYLVLEPGLDDIMENSEDYNRRLWAWEGWRAEVGKQLRPFYEEYVVLENEMARANNYEDYGDYWRGDYEVTGADGYDYSRNQLIADVERTFAEIKPLYEQLHAYVRAKLMDAYPSRISPTGCLPAHLLGDMWGRFWTNLYPLTVPFGEKPSIDVTKEMQNQSWDAKRIFKEAEKFFVSIGLPNMTQEFWVNSMLTEPGDGRKVVCHPTAWDLGKGDFRIKMCTKVTMDDFLTAHHEMGHIQYDMAYATQPFLLRNGANEGFHEAVGEIMSLSAATPHYLKALGLLPPDFYEDNVTEINFLLKQALQIVGTLPFTYMLEKWRWMVFKGEIPKEQWMQKWWEMKREIVGVVEPLPHDETYCDPACLFHVAEDYSFIRYYTRTIYQFQFHEALCQTAKHEGPLYKCDISNSTEAGQRLLQMLHLGKSEPWTLALENIVGVKTMDVKPLLNYFEPLLTWLKEQNRNSPVGWSTDWTPYSDQSIKVRISLKSALGEKAYEWNDNEMYLFQSSVAYAMREYFSKVRNETIPFGEKDVWVSDLKPRISFNFFVTTPKNVSDIIPRTEVEEAIRMSRGRINDAFRLDDNSLEFLGIQPTLGPPYEPPVT

Molecular target: SARS-CoV receptor-binding domain (RBD) (SARS-CoV, UniProt P59594)
Test: SPR

Question: With B1 as the binder, how does the Kd read?
Answer: 184 nM

Question: Which Kd does the source give for B2 here?
Answer: 76.2 nM

Question: For B3, which Kd is on record?
Answer: 162 nM

Question: How did the Kd turn out when B4 was run?
Answer: 2390 nM

Question: B5 was tested. Which Kd did it give?
Answer: 17.7 nM
